SMILES strings stand for the structures.

Assay [1] deals with Human immunodeficiency virus type 1 reverse transcriptase (Human immunodeficiency virus 1, UniProt Q72547, Y181I).
In assay [2] the target is Human immunodeficiency virus type 1 reverse transcriptase (Human immunodeficiency virus 1, UniProt Q72547).

As to `Cc1cc(C#N)cc(C)c1Oc1nc(Nc2ccc(C#N)cc2)nc(N)c1Br` [ETRAVIRINE], the IC50 in assay [1] and in assay [2] was 164 nM in each case.

Values taken from ChEMBL document CHEMBL3351613, “Indolylarylsulfones carrying a heterocyclic tail as very potent and broad spectrum HIV-1 non-nucleoside reverse transcriptase inhibitors” (J Med Chem, 2014).
